Source: ChEMBL document CHEMBL4411302, “Aryl H-phosphonates. 19. New anti-HIV pronucleotide phosphoramidate diesters containing amino- and hydroxypyridine auxiliaries” (Eur J Med Chem, 2019)

Legend:
[1] = Selectivity index, ratio of CC50 for human CEM-T4 cells to EC50 for HIV1 infected in human CEM-T4 cells
[2] = system: Human immunodeficiency virus 1; test: Antiviral activity against HIV1 infected in human CEM-T4 cells assessed as protection against virus-induced cytopathogenicity by measuring reduction in p24 level preincubated with cells for 24 hrs followed by viral infection and measured after 8 days by MTT assay
[3] = Half life of the compound in RPMI media at 37 degC; assay type: physicochemical
[4] = Prodrug activation in RPMI media assessed as hydrolysis by measuring P-O bond cleavage

| Structure (SMILES) | Ratio CC50/EC50 [1] | EC50 [2] | t1/2 [3] | Drug metabolism [4] |
| --- | --- | --- | --- | --- |
| Cc1cn([C@H]2C[C@H](N=[N+]=[N-])[C@@H](COP(=O)(Nc3ccccn3)Oc3ccccc3)O2)c(=O)[nH]c1=O (some centres not stated) | > 11200 | < 12 nM | 384 h |  |
| Cc1cn([C@H]2C[C@H](N=[N+]=[N-])[C@@H](COP(=O)(Nc3ccccn3)Oc3ccccn3)O2)c(=O)[nH]c1=O (some centres not stated) | > 16200 | < 6 nM | 25 h |  |
| Cc1cn([C@H]2C[C@H](N=[N+]=[N-])[C@@H](COP(=O)(Nc3ccccn3)Oc3cccnc3)O2)c(=O)[nH]c1=O (some centres not stated) | 3900 | 20 nM | 40 h |  |
| Cc1cn([C@H]2C[C@H](N=[N+]=[N-])[C@@H](COP(=O)(Nc3ccccn3)Oc3ccncc3)O2)c(=O)[nH]c1=O (some centres not stated) |  | Nd(Unstable) | Nd(Unstable) | Nd(Unstable) |
